Data published in patent US20060275317A1, “Vaccine compositions for prevention of chronic and infectious diseases” (Biokit S.A., priority 2003, published 2006).

Columns and labels:
[1] = system: anti-T. pallidum antibodies in human sera; assay: Bioelisa Syphilis ELISA (second and third generation format) with added lysozyme
[2] = system: antibodies in human syphilis sera; assay: Syphilis hemagglutination assay with GST-Tp17 coated red cells supplemented with lysozyme; conditions: for effect on intensity of hemagglutination: 3 μg lysozyme/1 μg Tp17, borderline human syphilitic sera; for samples showing improvement in sensitivity of the assay: 594 units human lysozyme/μg GST-Tp17, 10 human syphilitic sera

## human lysozyme: human lysozyme (NP_000230); breast milk (Sigma) or recombinant (Ventria) depending on the example
[1]
  response of syphilis-negative human sera: does not modify the response
[1]; second generation format, lysozyme added to the plate at 2.86 μg/ml, syphilis-positive sera
  increase in signal intensity: about 20%
[1]; third generation format, lysozyme in sample and conjugate dilution buffer, 3 out of 4 sera
  increase in signal intensity: about 200%
[2]
  effect on intensity of hemagglutination: improves the intensity of hemagglutination

## chicken lysozyme: purified chicken egg white lysozyme (Sigma-Aldrich; P00698)
[2]
  effect on intensity of hemagglutination: did not enhance the response

## recombinant human lysozyme: purified recombinant human lysozyme from transgenic rice (159-53LZ-90P; Ventria Bioscience)
[2]; 34 real positive samples
  samples negative without lysozyme that were positive with lysozyme: 14 of the 19
[2]; 200 blood bank samples
  false positive results: does not give false positives results
[2]
  samples showing improvement in sensitivity of the assay: 6 out of the 10

## natural human breast milk lysozyme: purified natural human breast milk lysozyme (L-6394; Sigma-Aldrich)
[2]
  samples showing improvement in sensitivity of the assay: 6 out of the 10
